Assay results published in PMC7801616, “Surface hydrophobics mediate functional dimerization of CYP121A1 of Mycobacterium tuberculosis” (Scientific Reports, 2021).

System: I166A_I180A CYP121A1 heme thiolate-CO complex
Test: Time-course CO binding assay (P450 to P420 conversion), monomeric double mutant
Conditions: monomeric CYP121A1, saturating ligand concentration

Substance: imidazole
- stabilization of the CO-bound 450 nm species: minimal stabilization of the 450 nm species
